For at least one entry, the source does not settle the construct or the ends of the probe.

Series [1] addresses SrrA-P (phosphorylated His-tagged SrrA) (UniProt Q5HP58). Kind of series: EMSA. To be noted: SrrA-P 50-250 uM, recombinant protein, protein details: His, label: 5'-biotin, probe letters rebuilt from the primers and the genome. A general note: Mobility shift assays separate free from complexed probe on a gel.
Series [2] has the same target. Kind of series: competition with a labelled probe. Particulars: 125-fold excess unlabeled vs labeled p-srrAB, 250 uM SrrA-P; recombinant protein; protein details: His; probe letters rebuilt from the primers and the genome.

For the sequence “GCCGTCTCCCATCTATCTTAAAATATATCCCTCATTTTAATCTTTTTAAAGATACTATTCAATAACTTTTTAGTACTTTAAAGCGTAATTGTTAAATTTTTCTGATATTTCTTATGTTTTTCTATCAATAATTTTAAAATAAGTTTATTTGCTATCGGAAAAGGGTTTAATTAAAATAGATACTACATAGTAATCAATATTAAATATAAAAGTGAGGGGGAGCTTGCTATGTCAAAACAGGATGGAAAA (double strand) [p-katA]”, the binding result in series [1] is “binds”.
Consider “GGCCCTATAGATTTAAAAGGTTTGAACGCCGGTGAAGGAAGAGTTCTTACACCACATGAAGTAAAAATATTAAGACATTTGGCAGAAAACGGTAAATAAACACCAAAAAGATGTAATTACCATTAAGATTGATATTTTTTTCACAAGGTTAACCTTTGAGTCACTCAATAACGTTAACCTATGATATAATGACAAATGTATTTAACAGCAAGTGTAGGAGGTAGTAGAAAGTATGACTAACGAAATTTTAATCGTTGATGATGAAGATAG (double strand) [p-srrAB]”, for which, in series [1] (dose-dependent shift), the binding result is listed as “binds”.
“AATCATAAAAATTCCTCCTTAATATTTAGTATAAATGAAAAGTAAAAAATTGAATCAATCATAAAGATAAACTTCATAAAATATTCAAATAATAATAAAAAGGTTGCAATTCATAAATTTATCCTTTGAAATATAGGATAATAGCTATCATAATTAGAAAAGAGGGAGGAATGAATTATGCTAACTGAAAAAGAGCAAGATATTATCAAACAAACTGTACCATTATTACAAGATAAAGGAACTGAGATTACTTCAATTTTTTATCCTAAGATGTTTGAGGCTAACCCAGAAT (double strand) [p-scdA]”: the binding result in series [1] is reported as “binds”.
As to “AGACATAGATAAATTCCTCCTGAAAAGTTAAGTGTTAATTAGAATTACTTAAAAATAATTGTTTGTTTATAATAATTCTAATCTCTTGTTTAGTATTATTACATCTTGGCATTGAATAGTCAACTTTAGAAGTTCTTAAAATCTATGAAAGTATAAAAAAGCTATAATTAAGCCGTTTTAAATCCCTCATTAATTAAAGAATAACGAGTAAAAAAAGTTGAAAATCCAATGTGAAACTGAAATTTTCAAATGTGTATGACTTTGAAATTCAGTTGTCATTCTCAACTATGGTTATTTTATTGAT (double strand) [p-ahpC]”, the binding result in series [1] was “binds”.
“TTGATTTATTCACTTCCTATAATTACTATATATCATAATATTGAAACAGATTCATTATTTTAGAAGTTTATCATTTACTATCTTACGAATTTAAAATTTATATTGTAGCTTTCAATATCAACTTTTACTTTTTTATATAATTATTTTGATTTTCAAAAATACTACTGATTTTCATTAAAAAGTTAGAAATACCTTCAATCATTACTTTAAATCATAACATGAATTCTTTAATATTAAATTATATTGTAGTTGATAATAAATAAGTACTTACATAATATCTATGATAATGAGGTGAAAACAAATGAAAAAACCAGATATTCAACAGTTAAAAGATATCGT (double strand) [p-serp1797]”: the binding result in series [1] is on record as “binds”.
On the same count and under the same terms, the value for “ATTCACACCCGTTTTATCTACGATATTTTTGAATTCTTTTTTAGTCGGTGTATGTTGAACAATATCAATGGATTCATAATTCACATCGTGCTCATCTAAAAACTTTGCAGCCTTTTTGCACGTTGTGCATTTCGGATACTGATAAAATTTAATCAATTACCTTTTACCTCCTTCTCTCTATTAACTTAAATATATCATGATATTTAATTGAACGCTTTAATTTTCAAGCTAATATTTTTGTTAATGTGCAGTCATTCGTTATAATAAGTTTACCAAATTACAAAAGGAGTAGATAGTGATGAAA (double strand) [p-serp0483]” was “binds”.
As for “GGCCCTATAGATTTAAAAGGTTTGAACGCCGGTGAAGGAAGAGTTCTTACACCACATGAAGTAAAAATATTAAGACATTTGGCAGAAAACGGTAAATAAACACCAAAAAGATGTAATTACCATTAAGATTGATATTTTTTTCACAAGGTTAACCTTTGAGTCACTCAATAACGTTAACCTATGATATAATGACAAATGTATTTAACAGCAAGTGTAGGAGGTAGTAGAAAGTATGACTAACGAAATTTTAATCGTTGATGATGAAGATAG (double strand) [p-srrAB unlabeled competitor]”, in series [2], the binding result is listed as “binds”.
